The target of this data set is NCp7 (nucleocapsid protein, Zn2.NCp7(1-55)) (HIV-1) (UniProt P35962). As to conditions: Trp37 fluorescence quenching, 0.2 M NaCl.

Like-named read-outs stand apart in the source and are kept apart here.

The Kd is the constant that tells how readily two partners part at equilibrium. Read a high Kd as weaker binding.

SL1i came in with a Kd of 0.14 µM.
With SL2, where the note is “p120 gives 25 nM”, the Kd stood at 0.023 µM. In other words, the double-digit nanomolar range.
For the substance SL3 (20mer), under “1:1”, the Kd was 0.028 µM.
For SL3-GAUA, the Kd (quenching almost nil) was 16 µM.
As for SL3-UUCG, the Kd (quenching almost nil) is 7.5 µM.
As to SL3-all-DNA, the Kd worked out at 0.23 µM.
Same read-out and setting: then SL4, with 0.32 µM.

The values are drawn from patent US20110059555, “BRANCHED AND MULTI-CHAIN NUCLEIC ACID SWITCHES FOR SENSING AND SCREENING” (Syracuse University, published 2011).
